{"source": "PubChem BioAssay AID504761 (Drosophila RNAi Screening Center, 2011)", "assay": "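Fly genes whose silencing reduces dengue virus type 2 infection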 (primary screen)", "cell system": "D.Mel-2 cells from Drosophila", "reagent": "long dsRNA against Drosophila genes", "conditions": "infection with dengue virus type 2; dose and infection time not stated", "measured": "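Per well on two replicate plates, imaging gave the percent of cells positive for viral envelope protein, ranked by infection, and a nuclear count of cells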", "reading the numbers": "infection score: higher = more virus-infected cells; cell count: higher = more cells in the well", "active means": "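Very low infection ranking in both replicate wells (chance probability at most 0.065), then a retest showing infection dropped 1.5-fold or more at p below 0.05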", "meaning of the calls": "active = confirmed: knock-down lowers infection; inactive = not picked or not confirmed", "note": "In all, the deposit lists about 22,000 reagents; this is a random part of those with a known target gene and a result. Over the whole deposit, 116 (0.52%) got an active call. 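Calls depend on retest data that are not deposited; infection was ranked per plate without normalising between plates; the unit of the infection score is not given.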 Raw values vary from plate to plate and are shown uncorrected. Entries without a mark were called inactive. The record does not give: the amount of reagent, the time to read-out."}
{"target": "IFT54 (Intraflagellar transport 54)", "dsRNA": "DRSC15469", "infection score, replicate 1": 5.93, "infection score, replicate 2": 9.04, "cell count, replicate 1": 5781, "cell count, replicate 2": 7048}
{"target": "dimm (dimmed)", "dsRNA": "DRSC03100", "cell count, replicate 1": 415, "cell count, replicate 2": 451}
{"target": "mRpL4 (mitochondrial ribosomal protein L4)", "dsRNA": "DRSC03562", "infection score, replicate 1": 19.6, "infection score, replicate 2": 16.2, "cell count, replicate 1": 6302, "cell count, replicate 2": 5414}
{"target": "CG10584", "dsRNA": "DRSC11624", "infection score, replicate 1": 13.1, "infection score, replicate 2": 16.1, "cell count, replicate 1": 6584, "cell count, replicate 2": 6520}
{"target": "CG14151", "dsRNA": "DRSC10153", "infection score, replicate 1": 2.25, "infection score, replicate 2": 5.83, "cell count, replicate 1": 5504, "cell count, replicate 2": 6266}
{"target": "kek6 (kekkon 6)", "dsRNA": "DRSC15299", "infection score, replicate 2": 8.01, "cell count, replicate 1": 338, "cell count, replicate 2": 6121}
{"target": "kek6 (kekkon 6)", "dsRNA": "DRSC23759", "infection score, replicate 1": 1.8, "infection score, replicate 2": 5.66, "cell count, replicate 1": 5938, "cell count, replicate 2": 5933}
{"target": "Mst36Fa (Male-specific transcript 36Fa)", "dsRNA": "DRSC21564", "infection score, replicate 1": 1.88, "infection score, replicate 2": 8.23, "cell count, replicate 1": 5846, "cell count, replicate 2": 6114}
{"target": "Mst36Fa (Male-specific transcript 36Fa)", "dsRNA": "DRSC26339", "infection score, replicate 1": 3.78, "infection score, replicate 2": 8.21, "cell count, replicate 1": 6596, "cell count, replicate 2": 6301}
{"target": "crp (cropped)", "dsRNA": "DRSC03515", "infection score, replicate 1": 52.1, "infection score, replicate 2": 18.4, "cell count, replicate 1": 4475, "cell count, replicate 2": 7666}
{"target": "Acsx3 (Acyl-CoA synthetase X3)", "dsRNA": "DRSC14309", "infection score, replicate 1": 1.54, "infection score, replicate 2": 2.08, "cell count, replicate 1": 6628, "cell count, replicate 2": 7025}
{"target": "Cpr65Av (Cuticular protein 65Av)", "dsRNA": "DRSC09727", "infection score, replicate 1": 2.5, "infection score, replicate 2": 30, "cell count, replicate 1": 6276, "cell count, replicate 2": 5132}
{"target": "Cpr65Av (Cuticular protein 65Av)", "dsRNA": "DRSC26499", "infection score, replicate 1": 8.3, "infection score, replicate 2": 3.94, "cell count, replicate 1": 5951, "cell count, replicate 2": 6160}
{"target": "Prp5 (pre-mRNA processing factor 5)", "dsRNA": "DRSC19975", "infection score, replicate 1": 7.27, "infection score, replicate 2": 2.78, "cell count, replicate 1": 6133, "cell count, replicate 2": 6511}
{"target": "Prp5 (pre-mRNA processing factor 5)", "dsRNA": "DRSC27434", "infection score, replicate 1": 19.4, "infection score, replicate 2": 13.7, "cell count, replicate 1": 6354, "cell count, replicate 2": 6031}
{"target": "betaCOP (Coat Protein (coatomer) beta)", "dsRNA": "DRSC20312", "infection score, replicate 1": 2.36, "infection score, replicate 2": 0.75, "cell count, replicate 1": 2123, "cell count, replicate 2": 1997}
{"target": "betaCOP (Coat Protein (coatomer) beta)", "dsRNA": "DRSC27169", "infection score, replicate 1": 1.82, "infection score, replicate 2": 1.46, "cell count, replicate 1": 713, "cell count, replicate 2": 893}
{"target": "Cda4 (Chitin deacetylase-like 4)", "dsRNA": "DRSC20623", "infection score, replicate 1": 4.01, "infection score, replicate 2": 1.55, "cell count, replicate 1": 6081, "cell count, replicate 2": 5744}
{"target": "Cda4 (Chitin deacetylase-like 4)", "dsRNA": "DRSC20641", "infection score, replicate 1": 1.39, "infection score, replicate 2": 2.35, "cell count, replicate 1": 5755, "cell count, replicate 2": 5619}
{"target": "Cda4 (Chitin deacetylase-like 4)", "dsRNA": "DRSC20642", "infection score, replicate 1": 3.23, "infection score, replicate 2": 1.57, "cell count, replicate 1": 6070, "cell count, replicate 2": 5995}
{"target": "l(2)10685 (lethal (2) 10685)", "dsRNA": "DRSC00665", "infection score, replicate 1": 1.8, "infection score, replicate 2": 0.82, "cell count, replicate 1": 6166, "cell count, replicate 2": 6991}
{"target": "l(2)10685 (lethal (2) 10685)", "dsRNA": "DRSC27739", "infection score, replicate 1": 4.44, "infection score, replicate 2": 19.9, "cell count, replicate 1": 6874, "cell count, replicate 2": 6612}

A run of entries of the results above, for reference:
{"target": "IFT54 (Intraflagellar transport 54)", "dsRNA": "DRSC15469", "infection score, replicate 1": 5.93, "infection score, replicate 2": 9.04, "cell count, replicate 1": 5781, "cell count, replicate 2": 7048}
{"target": "dimm (dimmed)", "dsRNA": "DRSC03100", "cell count, replicate 1": 415, "cell count, replicate 2": 451}
{"target": "mRpL4 (mitochondrial ribosomal protein L4)", "dsRNA": "DRSC03562", "infection score, replicate 1": 19.6, "infection score, replicate 2": 16.2, "cell count, replicate 1": 6302, "cell count, replicate 2": 5414}
{"target": "CG10584", "dsRNA": "DRSC11624", "infection score, replicate 1": 13.1, "infection score, replicate 2": 16.1, "cell count, replicate 1": 6584, "cell count, replicate 2": 6520}
